Measurements: the supplement of paper PMC11997997

System: murine bone marrow-derived macrophages
Test: area under cytotoxicity dose-response curve (AUC (% cytotoxicity x dose, relative)); higher = more cytotoxic
Details: duration: 6 days; dose range: 0.13-80 uM, 8 points
Description: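 Primary murine bone marrow-derived macrophages in 384-well plates were treated with an 8-point 2.5-fold dose response (80 to 0.13 uM) for 6 days at 37 C. Viability was read by CellTiter-Glo, and % cytotoxicity was taken relative to DMSO and 4% Triton X-100. The AUC of the dose-response was computed in Prism.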

Compound | area under cytotoxicity dose-response curve
CCOc1ccc(NC(=S)Nc2ccc(OCC)cc2)cc1 | < 0
CN(C/C=C/c1ccccc1)Cc1cccc2ccccc12.Cl | 91.3
Clc1cc2cccnc2c2ncccc12 | 20.7
C[CH2][Hg][S]c1ccccc1C(=O)[O-].[Na+] | 190
